Measured values from several laboratories, pooled; numbers as filed in NIAID ChemDB.

Inhibition is in % at the dose shown (toxicity tests: loss of growth or viability). An empty or dashed field is not shown. Lines come from different laboratories, so protocols vary. ICn: concentration for n% inhibition. MIC bound: limit read from a one-dose screen.

| compound | organism | target | read by | measure | dose | kind | strain | value |
|---|---|---|---|---|---|---|---|---|
| CN(C)c1ncnc2c1ncn2C1OC(CO)C2NP(=O)(N(CCCl)CCCl)OC21 | Mycobacterium tuberculosis |  | BACTEC | MIC bound |  | culture | H37Rv | >12.5 µg/mL |
| Cc1cccc(-c2cncc(N3CCN(c4ccc(Cl)cc4)CC3)n2)c1 | Cytomegalovirus | UL97 kinase |  | inhibition | 10 µM | target |  | >15% |
| CP1(=S)CCC2=C1CCc1cc(O)ccc12 | Mycobacterium tuberculosis |  | resazurin | inhibition | 6.25 µg/mL | culture | H37Rv | 12% |
| COc1ccc(-c2cncc(N3CCN(c4ccc(C(C)=O)cc4)CC3)n2)cc1F | Cytomegalovirus | UL97 kinase |  | IC50 |  | target |  | <10 µM |
| CC1(C)CC(=O)c2c(oc3cc4c5c(oc4cc23)CC(C)(C)CC5=O)C1 | Mycobacterium tuberculosis |  | BACTEC | inhibition | 12.5 µg/mL | culture | H37Rv | 4% |
| COc1ccc(N2CCN(c3cncc(-c4csc5ccccc45)n3)CC2)cc1OC | Cytomegalovirus | UL97 kinase |  | IC50 |  | target |  | <10 µM |
| CC(=O)N1C(C)CC(=O)N1c1ccccc1 | Mycobacterium tuberculosis |  |  | MIC |  | culture | H37Rv | >100 µg/mL |
| CC12C=CC(C)(C3C(=O)C4C(C(=O)C31)C1(C)C=CC4(C)S1=O)S2=O | Mycobacterium tuberculosis |  | resazurin | MIC bound |  | culture | H37Rv | >6.25 µg/mL |
| CN(C)C1CCc2cc3c(cc2C1O)CCCC3.Cl | Mycobacterium tuberculosis |  |  | MIC |  | culture | H37Rv | 50 µg/mL |
| NNC(=O)C1COc2ccccc2O1 | Mycobacterium tuberculosis |  | BACTEC | MIC |  | culture | H37Rv | ≥12.5 µg/mL |
| Cc1ccc(C(C)C)c(O)c1S(=O)(=O)O | Mycobacterium tuberculosis |  |  | MIC |  | culture | H37Rv | >100 µg/mL |
| COc1ccc(N2CCN(c3cncc(-c4cc(C)cc(C)c4)n3)CC2)cc1OC | Cytomegalovirus | UL97 kinase |  | IC50 |  | target |  | <100 µM |
| Cc1ccc(Nc2cc(S(=O)(=O)[O-])c3c4c(cc(=O)n3C)-c3ccccc3C(=O)c24)cc1.[Na+] | Mycobacterium tuberculosis |  |  | MIC |  | culture | H37Rv | >100 µg/mL |
| CC1(C)COC2(CC(C)(C)OC2(C)C)OC1 | Mycobacterium tuberculosis |  | BACTEC | inhibition | 12.5 µg/mL | culture | H37Rv | 4% |
| O=C(O)c1cc(-c2ccccc2)nc2c1c(S(=O)(=O)O)cc1c(S(=O)(=O)O)cccc12 | Mycobacterium tuberculosis |  |  | MIC |  | culture | H37Rv | >100 µg/mL |
| O=C1CSC(=S)N1c1ccc(Cl)c(C(F)(F)F)c1 | Mycobacterium tuberculosis |  | BACTEC | MIC bound |  | culture | H37Rv | >12.5 µg/mL |
| N#Cc1cccnc1 | Mycobacterium tuberculosis |  |  | MIC |  | culture | H37Rv | >100 µg/mL |
| Cc1ccc(N2CCN(c3cncc(-c4ccc(N(C)C)cc4)n3)CC2)cc1 | Cytomegalovirus | UL97 kinase |  | inhibition | 10 µM | target |  | >15% |
| COc1cc(NCCCCN2C(=O)c3ccccc3C2=O)c2ncccc2c1 | Mycobacterium tuberculosis |  |  | MIC |  | culture | H37Rv | 25 µg/mL |
| Fc1ccc(N2CCCCC2)c(NC(=S)c2ccncc2)c1 |  | cKit (V560G) | kinase activity | inhibition | 10 µM | host protein |  | 0% |
| Cc1cccc(N2CCN(c3cncc(-c4csc5ccccc45)n3)CC2C)c1 | Cytomegalovirus | UL97 kinase |  | inhibition | 10 µM | target |  | >15% |